Compound potency records, mixed from different reports. Data source: NIAID ChemDB in PubChem.

All rows: host cell toxicity; cells: VERO; measure: CC50

CCn: concentration that lowers growth or viability of the cells by n%.

smiles | result
Cn1c(O)c(C2=c3ccccc3=NC2=O)c2ccccc21 | >100 µM
CO[C@H]1/C=C/O[C@@]2(C)Oc3c(C)c(O)c4c(O)c(c(C5SCCS5)c(O)c4c3C2=O)NC(=O)/C(C)=C\C=C\[C@H](C)[C@@H]2OC(C)(C)O[C@@H]([C@@H](C)[C@H](OC(C)=O)[C@@H]1C)[C@@H]2C | 12.43 µg/mL
Oc1cc(O)c2c(c1)O[C@H](c1cc(O)c(O)c(O)c1)[C@H](O)C2 | >100 µg/mL
Nc1ccn([C@H]2C=C[C@@H](CO)C2)c(=O)n1 | >100 µM
Cc1cccc2c1OP(=O)(OC[C@H]1O[C@@H](n3cc(/C=C/Br)c(=O)[nH]c3=O)C[C@@H]1O)OC2 | >128 µg/mL
Nc1ncnc2c1ncn2CCOCP(=O)(O)O | >100 µM
COc1cc([C@@H]2c3cc4c(cc3[C@H](OC(C)=O)[C@@H]3COC(=O)[C@@H]23)OCO4)cc2nc3ccccc3nc12 | >20 µg/mL
C[C@]1(CCP(=O)(O)O)CO[C@@H](n2cnc3c(N)ncnc32)C1 | >100 µM
CSc1nsc(-c2ccccc2)c1C#N | 20 µg/mL
CC(C)OC(=O)NNC(=O)c1ccncc1 | 0.1 µg/mL
COc1cc([C@@H]2c3cc4c(cc3[C@H](OC(C)=O)[C@@H]3COC(=O)[C@@H]23)OCO4)cc(OC)c1OC | >20 µg/mL
CCCSc1nsc(-c2ccccc2)c1C(N)=O | 300 µg/mL
CCOC(=O)P(=O)(OCCOCn1cnc2c(=O)[nH]c(N)nc21)OC(C)C | >2481 µM
O=C1NC(=O)[C@H](c2c[nH]c3ccccc23)[C@H]1c1c[nH]c2ccccc12 | 101 µM
O=c1[nH]c(=O)n([C@H]2C[C@H](O)[C@@H](COP3(=O)OCc4ccccc4O3)O2)cc1/C=C/Br | >128 µg/mL
O=C(O[C@@H]1Cc2c(O)cc(O)cc2O[C@@H]1c1ccc(O)c(O)c1)c1cc(O)c(O)c(O)c1 | >100 µg/mL
Nc1ncnc2c1ncn2C1OC(CO)C=C1F | >100 µM
O=C(NC1N=C(c2ccccc2)c2ccccc2NC1=O)c1ccccc1C(F)(F)F | 4 µM
Cc1ccc(Nc2nc3c(s2)C(=O)c2ccccc2C3=O)cc1 | 2.4 µg/mL
Cc1cccc2c1OP(=O)(OC[C@H]1O[C@@H](n3cc(/C=C/Br)c(=O)[nH]c3=O)C[C@@H]1OC(=O)[C@@H](N)C(C)C)OC2 | 87 µg/mL
Cc1cc2c(C(C)C)c(O)c(O)c(C=O)c2c(O)c1-c1c(C)cc2c(C(C)C)c(O)c(O)c(C=O)c2c1O | 5.2 µM
CC(=O)O[C@H]1C[C@H](n2cc(/C=C/Br)c(=O)[nH]c2=O)O[C@@H]1COP1(=O)OCc2ccccc2O1 | 47.6 µg/mL
COc1cc([C@@H]2c3cc4c(cc3[C@H](OC(C)=O)[C@@H]3COC(=O)[C@@H]23)OCO4)cc2nc3cc(C)c(C)cc3nc12 | >25 µg/mL
Cc1ccc(O)c(O)c1 | 11.3 µg/mL
N#CCSc1nsc(-c2ccccc2)c1C#N | 10 µg/mL
O=C[C@@H](CO)O[C@H](C=O)n1ccc(=O)[nH]c1=O | 250 µg/mL
COc1ccc2c(c1)[nH]c1c3[nH]c4cc(OC)ccc4c3c3c(c21)C(=O)NC3=O | <8 µM
COc1ccccc1NC(=O)NC1N=C(c2ccccc2)c2ccccc2NC1=O | 1 µM
CCCCC(=O)OC[C@@H]1C=C[C@H](n2cc(F)c(N)nc2=O)O1 | >100 µM
O=c1[nH]cnc2c1ncn2[C@@H]1O[C@@H](CO)C=C1F | >100 µM
Nc1nccc2c1ncn2[C@@H]1C=C[C@@H](O)[C@H]1O | 2.2 µg/mL
Clc1ccc2c(c1)Nc1ccccc1S2 | 1.4 µg/mL
Cc1cc2c(C(C)C)c(O)c(O)c(/C=N/O)c2c(O)c1-c1c(C)cc2c(C(C)C)c(O)c(O)c(/C=N/O)c2c1O | 7.5 µM
O=c1[nH]c(=O)n([C@H]2C[C@H](O)[C@@H](COP3(=O)OCc4cc(Cl)ccc4O3)O2)cc1/C=C/Br | 72.9 µg/mL
Cc1cc2c(C(C)C)c(O)c(O)cc2c(O)c1-c1c(C)cc2c(C(C)C)c(O)c(O)cc2c1O | 77.4 µM
Cn1cc(NC(=O)c2cc(NC(=O)CCCCCCCCCCC(=O)Nc3cc(C(=O)Nc4cc(C(=O)NCCC(N)=[NH2+])n(C)c4)n(C)c3)cn2C)cc1C(=O)NCCC(N)=[NH2+] | 41 µg/mL
C[C@@H]1C[C@@H]([C@H](O)CC2CC(=O)NC(=O)C2)C(=O)[C@@H](C)C1 | 1.2 µM
O=c1[nH]c(=O)n([C@H]2C[C@H](F)[C@@H](CO)O2)cc1/C(Br)=C/I | 29.5 µM
O=C(NC1N=C(c2ccccc2)c2cc(Cl)ccc2NC1=O)C1CCCCC1 | 5 µM
Nc1nc(=O)n([C@@H]2C[Se][C@H](CO)O2)cc1F | >100 µM
Cc1cn([C@H]2C[C@H](N=[N+]=[N-])[C@@H](CO)O2)c(=O)[nH]c1=O | 29 µM
CO[C@H]1/C=C/O[C@@]2(C)Oc3c(C)c(O)c4c(c3C2=O)C(=O)c2cnc(nc2C4=O)/C(C)=C\C=C\[C@H](C)[C@H](O)[C@@H](C)[C@@H](O)[C@@H](C)[C@H](OC(C)=O)[C@@H]1C | 4.59 µg/mL
Cc1cccc2c1OP(=O)(OC[C@H]1O[C@@H](n3cc(/C=C/Br)c(=O)[nH]c3=O)C[C@@H]1OC(=O)[C@H](N)C(C)C)OC2 | 123 µg/mL
Cc1cc2c(C(C)C)c(O)c(O)c(C=NCCS(=O)(=O)O)c2c(O)c1-c1c(C)cc2c(C(C)C)c(O)c(O)c(C=NCCS(=O)(=O)O)c2c1O | 37.5 µM
N#Cc1c(Br)n([C@@H]2O[C@H](CO)[C@@H](O)[C@H]2O)c2ncnc(N)c12 | 10 µg/mL
O=C1c2cscc2C(=O)c2cscc21 | >10 µg/mL
Cc1cccc2c1OP(=O)(OC[C@H]1O[C@@H](n3cc(/C=C/Br)c(=O)[nH]c3=O)C[C@@H]1OC(=O)[C@@H](N)CC(C)C)OC2 | >128 µg/mL
O=c1[nH]c(=O)n([C@H]2C[C@H](F)[C@@H](CO)O2)cc1C#CI | 22.9 µM
O=c1c(O)c(-c2cc(O)c(O)c(O)c2)oc2cc(O)cc(O)c12 | >100 µg/mL
CCN(CC)Cc1c(-c2ccccc2)oc(-c2ccccc2)c1CN(CC)CC | 19.21 µg/mL
NC(=O)c1nc(F)c[nH]c1=O | >1000 µg/mL
Nc1nc(=O)n2ccn([C@@H]3O[C@H](CO)[C@@H](O)[C@H]3O)c2n1 | >100 µg/mL
Nc1ccn([C@H]2CS[C@H](CO)O2)c(=O)n1 | >100 µM
O=C(Cc1ccccc1C(F)(F)F)NC1N=C(c2ccccc2)c2ccccc2NC1=O | 2 µM
Cn1ncc2c(N(N)CCO)nc(-c3ccc([N+](=O)[O-])o3)nc21 | 4.87 µg/mL
O=C1Nc2ccccc2C(c2ccccc2)=NC1NS(=O)(=O)c1ccc(Br)cc1 | 10 µM
COc1ccc2c(c1)COP(=O)(OC[C@H]1O[C@@H](n3cc(/C=C/Br)c(=O)[nH]c3=O)C[C@@H]1O)O2 | >128 µg/mL
CC1=C(C)C(=O)C(CC2=C(C)C(=O)C(C)=C(C)C2=O)=C(C)C1=O | 7.1 µg/mL
Cc1cn([C@H]2C[C@H](N=[N+]=[N-])[C@@H](CO)O2)c(=O)[nH]c1=O | 29 µM
CCOC(=O)CSc1nsc(-c2ccccc2)c1C#N | 200 µg/mL
CSC(=S)N/N=C(\C)c1ccc[nH]1 | 25 µg/mL
O=C(NC(=O)C1N=C(c2ccccc2)c2ccccc2NC1=O)c1ccno1 | 3 µM
O=C(O)Cc1ccc(O)c(O)c1 | 261 µg/mL
O=C(NC(N1CCN(c2cc3c(cc2F)c(=O)c(C(=O)O)cn3C2CC2)CC1)(C(F)(F)F)C(F)(F)F)c1ccccc1 | >10 µg/mL
CCCSc1nsc(-c2ccccc2)c1C(=O)OC | 50 µg/mL
O=C1CCCN2C(CC1)C[C@]13CN4CCCC/C=C\CC[C@](O)(C=C(c5nccc6c5[nH]c5ccccc56)[C@@H]1CC4)C23 | >4.76 µg/mL
O=C(Oc1cc(O)c2c(c1)O[C@H](c1ccc(O)c(O)c1)[C@@H](O)C2)c1cc(O)c(O)c(O)c1 | >100 µg/mL
CCC[CH2][Sn]([Cl])([Br])[CH2]CCC.c1cnc2c(c1)ccc1cccnc12 | 0.09 µg/mL
CN1C(=O)c2c(c3c4ccccc4[nH]c3c3[nH]c4ccccc4c23)C1=O | ~100 µM
O=c1[nH]cc(F)c(=O)[nH]1 | 6.81 µM
CC1(C)Nc2cccc3c(N=Nc4ccc(N=Nc5ccccc5)c5ccccc45)ccc(c23)N1 | 10.4 µg/mL
Nc1nc(=O)n([C@H]2C=C[C@@H](CO)C2)cc1F | >100 µM
COC(=O)[C@@H]1[C@H](c2cc(OC)c3nc4cc(Cl)c(Cl)cc4nc3c2)c2cc3c(cc2C2=NOC[C@@H]21)OCO3 | 30 µg/mL
O=c1cnn([C@@H]2O[C@H](CO)[C@@H](O)[C@H]2O)c(=O)[nH]1 | 201 µg/mL
O=C1NC(=O)c2c1c1c3ccccc3[nH]c1c1[nH]c3ccccc3c21 | >125 µM
CCCCS(=O)(=O)NC(=O)C1N=C(c2ccccc2)c2ccccc2NC1=O | 15 µM
[N-]=[N+]=N[C@H]1C[C@H](n2cc(/C(Cl)=C\I)c(=O)[nH]c2=O)O[C@@H]1CO | 9 µM
N#Cc1c(N2CCCCC2)nsc1-c1ccccc1 | 25 µg/mL
COc1cc([C@@H]2c3cc4c(cc3[C@H](OC(C)=O)[C@@H]3COC(=O)[C@@H]23)OCO4)cc2c1OC1(N3CCOCC3)CCCCC1O2 | >25 µg/mL
COC(=O)c1c(SC)nsc1-c1ccccc1 | 100 µg/mL
Nc1ccn([C@@H]2CS[C@H](CO)O2)c(=O)n1 | >100 µM
Cc1c2c(cc3c1[nH]c1ccccc13)C(c1ccc(Cl)cc1)=NCC2 | 0.45 µg/mL
Cc1cccc2c1[nH]c1c3[nH]c4c(C)cccc4c3c3c(c21)C(=O)NC3=O | >31 µM
CC(=O)NC[C@H]1CN(c2ccc(N3CCSCC3)c(F)c2)C(=O)O1 | >6.25 µg/mL
N#Cc1c(SCCCBr)nsc1-c1ccccc1 | 25 µg/mL
Cc1cc2c(C(C)C)c(O)c(O)c(C=N)c2c(O)c1-c1c(C)cc2c(C(C)C)c(O)c(O)c(C=N)c2c1O | 6.6 µM
NC1=NCN([C@@H]2O[C@H](CO)[C@@H](O)[C@H]2O)C(=O)N1 | 90 µg/mL
C[n+]1ccc(Nc2ccc(NC(=O)c3ccc(Nc4cc[n+](C)c5ccc([N+](=O)[O-])cc45)cc3[N+](=O)[O-])cc2)cc1 | >10 µg/mL
Cc1cc2c(C(C)C)c(O)c(O)c(C=Nc3ccc(C(=O)O)cc3)c2c(O)c1-c1c(C)cc2c(C(C)C)c(O)c(O)c(C=Nc3ccc(C(=O)O)cc3)c2c1O | 13.5 µM
NC(=O)c1c[se]c([C@@H]2O[C@H](CO)[C@@H](O)[C@H]2O)n1 | 610 µg/mL
O=c1[nH]c(=O)n([C@H]2C=C[C@@H](CO)O2)cc1F | 7.9 µM
Cc1cc(C(C#N)c2ccc(Cl)cc2)c(Cl)cc1NC(=O)c1cc(I)cc(I)c1O | 10 µg/mL
Cc1cc(=O)c2c(O)c3c(O)cc(O)c4c5c(O)cc(O)c6c(O)c7c(=O)cc(C)c8c1c2c(c34)c(c65)c78 | 10 µg/mL
CCCSc1nsc(-c2ccccc2)c1C(=O)O | 500 µg/mL
CC[N+](CC)=c1cc2oc3cc(N(C)C)ccc3nc-2cc1C.[Cl-] | 2.49 µg/mL
CC(=O)CCC(=O)O[C@H]1C[C@H](n2cc(/C=C/Br)c(=O)[nH]c2=O)O[C@@H]1COP1(=O)OCc2ccccc2O1 | >128 µg/mL

For reference, 7 entries again:

| smiles | result |
|---|---|
| [N-]=[N+]=N[C@H]1C[C@H](n2cc(/C(Cl)=C\I)c(=O)[nH]c2=O)O[C@@H]1CO | 9 µM |
| CCCCC(=O)OC[C@@H]1C=C[C@H](n2cc(F)c(N)nc2=O)O1 | >100 µM |
| Cn1c(O)c(C2=c3ccccc3=NC2=O)c2ccccc21 | >100 µM |
| CCN(CC)Cc1c(-c2ccccc2)oc(-c2ccccc2)c1CN(CC)CC | 19.21 µg/mL |
| CCC[CH2][Sn]([Cl])([Br])[CH2]CCC.c1cnc2c(c1)ccc1cccnc12 | 0.09 µg/mL |
| COC(=O)c1c(SC)nsc1-c1ccccc1 | 100 µg/mL |
| Cc1cccc2c1[nH]c1c3[nH]c4c(C)cccc4c3c3c(c21)C(=O)NC3=O | >31 µM |

Conditions beyond the fields shown may differ between rows.